Pooled drug test results. Numbers come from NIAID ChemDB, via PubChem.

Common to all: cytotoxicity tests; cells: MT-4; read by: MTT; measure: CC50

Rows are shuffled and stem from different studies. CCn is the concentration with n% toxicity to the cells.

{"structure": "O=C(COc1ccc2ccccc2c1)NCC(=O)NNC(=S)Nc1ccc(Cl)cc1", "result": "11.2 µg/mL"}
{"structure": "COc1cccc2c1c(/C(O)=C\\C(=O)C(=O)O)cn2Cc1ccccc1F", "result": "33.5 µM"}
{"structure": "O=C(COc1ccc2ccccc2c1)NCC(=O)NNC(=S)Nc1ccccc1", "result": "≥69.9 µg/mL"}
{"structure": "COc1c(-c2cc(C)[nH]n2)c(O)c(S(=O)(=O)Oc2ccc(F)cc2)c2occc12", "result": "160 µM"}
{"structure": "O=C(COc1ccc2ccccc2c1)NCc1n[nH]c(=S)n1Cc1ccccc1", "result": "28.5 µg/mL"}
{"structure": "CCOP(=O)(/C=C/[C@]1(C(F)(F)F)CC[C@H](n2cnc3c(Cl)nc(N)nc32)C1)OCC", "result": ">100 µM"}
{"structure": "N#Cc1ccc(NC2=NS(=O)(=O)NC(Cc3ccccc3)=C2)cc1", "result": "369 µM"}
{"structure": "CCc1c(Cc2cc(C)cc(C)c2)n(Cc2ccc(C#CCF)cc2)c(=O)[nH]c1=O", "result": "2 µM"}
{"structure": "FC(F)(F)[C@@]1(C#CC2CC2)OC(=S)Nc2ccc(Cl)cc21", "result": "40 µg/mL"}
{"structure": "O=S1(=O)N=C(Nc2cccc(Cl)c2)C=C(Cc2cccc3ccccc23)N1", "result": "161 µM"}
{"structure": "Cc1cc(C#N)cc(C)c1Oc1nc(Nc2ccc(NS(N)(=O)=O)cc2)nc2ccsc12", "result": "25.06 µM"}
{"structure": "CCN1C(C)Cn2c(=S)[nH]c3cc(Cl)cc(c32)S1(=O)=O", "result": "93 µM"}
{"structure": "COc1ccc(OS(=O)(=O)c2c(O)c(-c3cc(C)on3)c(OC)c3ccoc23)cc1", "result": "250 µM"}
{"structure": "CC1C(=S)Nc2ccc(Cl)cc2S(=O)(=O)N1CC1CC1", "result": ">200 µM"}
{"structure": "COc1c2ccoc2c(S(=O)(=O)OC2CCCC2)c2oc(C)cc(=O)c12", "result": "580 µM"}
{"structure": "Nc1nc2c(ncn2[C@H]2CC[C@](CCP(=O)(O)O)(C(F)(F)F)C2)c(=O)[nH]1", "result": ">100 µM"}
{"structure": "Cc1ccc(NC(=O)CSc2ncnn2-c2ccc(Cl)cc2Cl)c([N+](=O)[O-])c1", "result": "285.2 µM"}
{"structure": "O=C(COc1ccc2ccccc2c1)NCC(=O)NNC(=S)Nc1ccc(Br)cc1", "result": "31.2 µg/mL"}
{"structure": "C=CCN1C(C)C(=O)Nc2ccc(Cl)cc2S1(=O)=O", "result": ">200 µM"}
{"structure": "CC1=C[C@H](Cn2cnc3c(NC4CC4)nc(N)nc32)C[C@@H]1CO", "result": ">100 µg/mL"}
{"structure": "C=C(C)COCn1c(Cc2ccccc2)c(CO)c(=O)[nH]c1=O", "result": ">100 µM"}
{"structure": "Cc1ccc(CN=C2C=C(Cc3ccccc3)NS(=O)(=O)N2)cc1", "result": "192 µM"}
{"structure": "Cc1cc(C#N)cc(C)c1Oc1nc(NC2CCN(S(=O)(=O)c3ccc4ccccc4c3)CC2)nc2ccsc12", "result": ">219.4 µM"}
{"structure": "C=C(c1cc(C)cc(C)c1)c1c(CC)c(=O)[nH]c(=O)n1COCC=C(C)C", "result": "28 µM"}
{"structure": "C#CCOCn1c(Cc2ccccc2)c(CO)c(=O)[nH]c1=O", "result": ">100 µM"}
{"structure": "CSc1nc2ccccc2c(=O)n1/N=C1\\C(=O)Nc2ccc(Br)cc21", "result": "7.8 µM"}
{"structure": "C=C(c1ccccc1)c1c(CC)c(=O)[nH]c(=O)n1COCC", "result": ">100 µM"}
{"structure": "Cc1cc(C#N)cc(C)c1Oc1nc(Nc2ccc(N)cc2)nc2ccsc12", "result": "19.39 µM"}
{"structure": "CCOCn1c(Cc2ccccc2)c(C(C)C)c(=O)[nH]c1=O", "result": ">100 µM"}
{"structure": "CC1C(=S)Nc2ccc(Cl)cc2S(=O)(=O)N1Cc1c(F)cccc1F", "result": "≥200 µM"}
{"structure": "Cc1cc(C)c(Nc2nc(NC3CCN(Cc4ccccc4C#N)CC3)nc3nc[nH]c23)c(C)c1", "result": "125 µM"}
{"structure": "CSc1nc2ccccc2c(=O)n1/N=C1\\C(=O)N(CN2CCOCC2)c2ccc(Br)cc21", "result": "9.5 µM"}
{"structure": "COc1cccc2c1c(/C(O)=C/C(=O)C(=O)O)cn2Cc1ccccc1F.COc1cccc2c1c(/C(O)=C/C(=O)C(=O)O)cn2Cc1ccccc1F.[Mg+2].[Mg+2]", "result": "15.5 µM"}
{"structure": "CCCCOC(=O)c1cccn1S(=O)(=O)c1cc(Cl)ccc1N", "result": ">200 µM"}
{"structure": "Cc1cc(C)c(Nc2nc(NC3CCN(Cc4ccc(C#N)cc4)CC3)nc3nc[nH]c23)c(C)c1", "result": "26.79 µM"}
{"structure": "CC1C(=S)Nc2ccc(Cl)cc2S(=O)(=O)N1CC=Cc1ccccc1", "result": "16 µM"}
{"structure": "Cc1cc(C#N)cc(C)c1Oc1nc(Nc2ccc(NS(=O)(=O)c3ccc([N+](=O)[O-])cc3)cc2)nc2ccsc12", "result": "91.4 µM"}
{"structure": "COc1cccc2c1c(/C(O)=C\\C(=O)C(=O)O)cn2Cc1ccc(F)cc1", "result": "47.5 µM"}
{"structure": "O=C(COc1ccc2ccccc2c1)NCc1n[nH]c(=S)n1-c1ccc(Br)cc1", "result": "10.2 µg/mL"}
{"structure": "Nc1ncnc2c1ncn2[C@H]1CC[C@](/C=C/P(=O)(O)O)(C(F)(F)F)C1", "result": ">100 µM"}
{"structure": "C#CCOCn1c(C(=C)c2cc(C)cc(C)c2)c(CC)c(=O)[nH]c1=O", "result": ">100 µM"}
{"structure": "COc1c(C(=O)/C=C(/C)Nc2ccc([N+](=O)[O-])cc2)c(O)c(S(=O)(=O)OC2CCCCC2)c2occc12", "result": "490 µM"}
{"structure": "CCNC(=O)c1cccn1S(=O)(=O)c1cc(Cl)ccc1N", "result": ">200 µM"}
{"structure": "CSc1nc2ccccc2c(=O)n1/N=C1\\C(=O)Nc2ccc(Cl)cc21", "result": "40.3 µM"}
{"structure": "Cc1cc(C)c(Nc2nc(NC3CCN(Cc4ccc(Cl)c(Cl)c4)CC3)nc3nc[nH]c23)c(C)c1", "result": "189 µM"}
{"structure": "Cc1cnc(CNCc2ccc(CN3CCCNCCNCCCNCC3)cc2)cn1", "result": ">250 µg/mL"}
{"structure": "C#CCOCn1c(C(=C)c2ccccc2)c(CC)c(=O)[nH]c1=O", "result": ">100 µM"}
{"structure": "CSc1nc2ccccc2c(=O)n1/N=C1\\C(=O)N(CN(C)C)c2ccccc21", "result": "11.1 µM"}
{"structure": "CCO/C(CC(=O)NCc1ccccc1)=N\\Nc1ccccc1[N+](=O)[O-]", "result": "0.82 µM"}
{"structure": "C=C(c1ccccc1)c1c(CC)c(=O)[nH]c(=O)n1COCC=C(C)C", "result": "66 µM"}
{"structure": "CSc1nc2ccccc2c(=O)n1/N=C1\\C(=O)N(CN2CCOCC2)c2ccccc21", "result": "16.8 µM"}
{"structure": "Cc1cc(C)c(Nc2nc(NC3CCN(Cc4ccc([N+](=O)[O-])cc4)CC3)nc3nc[nH]c23)c(C)c1", "result": "21.8 µM"}
{"structure": "c1ccc(CCNCc2ccc(CN3CCCNCCNCCCNCC3)cc2)nc1", "result": ">250 µg/mL"}
{"structure": "Cc1cc(C)c(Nc2nc(NC3CCN(Cc4ccc(F)cc4)CC3)nc3nc[nH]c23)c(C)c1", "result": "13.96 µM"}
{"structure": "CCOCn1c(C(O)C=C(C)C)c(CC)c(=O)[nH]c1=O", "result": "100 µM"}
{"structure": "NNC(=O)c1cccn1S(=O)(=O)c1cc(Cl)ccc1[N+](=O)[O-]", "result": ">200 µM"}
{"structure": "CCO/C(CC(=O)NCc1ccc(OC)cc1)=N\\Nc1ccccc1[N+](=O)[O-]", "result": ">30.68 µM"}
{"structure": "COc1c(-c2cc(C)[nH]n2)c(O)c(S(=O)(=O)OC2CCCC2)c2occc12", "result": "240 µM"}
{"structure": "CSc1nc2ccccc2c(=O)n1/N=C1\\C(=O)N(CN(C)C)c2ccc(Cl)cc21", "result": "15.3 µM"}
{"structure": "CCO/C(CC(=O)NCc1ccc(Br)cc1)=N\\Nc1ccccc1[N+](=O)[O-]", "result": "53.28 µM"}
{"structure": "O=S1(=O)N=C(Nc2ccc(Cl)c(F)c2)C=C(Cc2ccc3ccccc3c2)N1", "result": "152 µM"}
{"structure": "COCCOC(=O)c1cccn1S(=O)(=O)c1cc(Cl)ccc1N", "result": ">200 µM"}
{"structure": "CCOCn1c(Cc2ccccc2)c(C(C)C)c(=O)[nH]c1=O", "result": ">100 µM"}
{"structure": "COc1ccc(CSc2nc(C(C#N)c3ccccc3Br)c(C)c(=O)[nH]2)cc1", "result": ">86.65 µM"}